Measured data: PubChem BioAssay AID504761 (Drosophila RNAi Screening Center, 2011)
The screen tested about 22,000 reagents; shown is a random part of those with a known target gene and a result. In the full data, 116 (0.52%) got an active call. 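Calls depend on retest data that are not deposited; infection was ranked per plate without normalising between plates; the unit of the infection score is not given.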 The raw values are shown without normalisation. A plus sign joins genes that one reagent is predicted to hit. Not stated in the record: the amount of reagent, the time to read-out.

Purpose: 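Insect host genes that dengue virus relies on to spread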 (primary screen)
Cells: D.Mel-2 cells from Drosophila
Knock-down reagent: long dsRNA against Drosophila genes
Conditions: infection with dengue virus type 2; dose and infection time not stated
Measured: 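Per well on two replicate plates, imaging gave the percent of cells positive for viral envelope protein, ranked by infection, and a nuclear count of cells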
Scale: infection score: higher = more virus-infected cells; cell count: higher = more cells in the well
Rule for the call: 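Very low infection ranking in both replicate wells (chance probability at most 0.065), then a retest showing infection dropped 1.5-fold or more at p below 0.05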
Meaning of the calls: active = confirmed: knock-down lowers infection; inactive = not picked or not confirmed

gene | amplicon | infection score, replicate 1 | infection score, replicate 2 | cell count, replicate 1 | cell count, replicate 2 | Call
CG32985 (GeneID 326244) | DRSC02634 | 6.33 | 5.6 | 6497 | 6962 | inactive
CG32985 (GeneID 326244) | DRSC24453 | 7.74 | 3.32 | 6019 | 5822 | inactive
CG13833 (GeneID 42718) | DRSC14683 | 5.33 | 18.1 | 6754 | 4260 | inactive
CG10587 (GeneID 40318) | DRSC11627 | 8.3 | 2.19 | 6083 | 6309 | inactive
Tep4 (GeneID 35248) | DRSC03453 | 9.69 | 2.27 | 3324 | 6222 | inactive
cnc (GeneID 42743) | DRSC14676 | 15.2 | 1.65 | 3759 | 6652 | inactive
cnc (GeneID 42743) | DRSC15289 | 12.1 | 14 | 6203 | 5591 | inactive
cnc (GeneID 42743) | DRSC15600 | 7.26 | 12.2 | 6957 | 4248 | inactive
cnc (GeneID 42743) | DRSC15601 | 12.5 | 9.47 | 4856 | 5430 | inactive
CG13559 (GeneID 37720) | DRSC04197 | 6.68 | 8.45 | 6314 | 6924 | inactive
PKD (GeneID 42203) | DRSC16200 | 2.87 | 1.96 | 6691 | 6016 | inactive
Ork1 (GeneID 32020) | DRSC20266 | 9.02 | 6.41 | 6256 | 6587 | inactive
Irbp18 (GeneID 39243) | DRSC10612 | 2.39 | 4.01 | 5989 | 6189 | inactive
Alp8 (GeneID 37540) | DRSC04353 | 25.7 | 15.5 | 5992 | 5919 | inactive
Alp8 (GeneID 37540) | DRSC27635 | 6.82 | 5.94 | 6236 | 6467 | inactive
Gr57a (GeneID 37347) | DRSC06401 | 5.35 | 2.29 | 6319 | 6477 | inactive
Lipt2 (GeneID 40565) | DRSC12338 | 3.8 | 13.5 | 6982 | 6444 | inactive
Lipt2 (GeneID 40565) | DRSC22610 | 6.86 | 1.95 | 6267 | 6465 | inactive
tsh (GeneID 35430) | DRSC03740 | 5.66 | 16.4 | 6145 | 6176 | inactive
temp (GeneID 31212) | DRSC18271 | 16.2 | 2.21 | 5822 | 6202 | inactive
axed (GeneID 38741) | DRSC08833 | 0.47 | 0.51 | 6187 | 6217 | inactive
axed (GeneID 38741) | DRSC10982 | 6.14 | 4.24 | 5863 | 5664 | inactive
U2A (GeneID 35713) | DRSC06445 | 5.59 | 23.4 | 5477 | 5271 | inactive
U2A (GeneID 35713) | DRSC28070 | 27.1 | 10.1 | 5480 | 5721 | inactive
rin (GeneID 47998) | DRSC22997 | 2.32 | 17.5 | 4145 | 4270 | inactive
CCKLR-17D3 (GeneID 32864) | DRSC20015 | 2.53 | 1.45 | 5172 | 5033 | inactive
CCKLR-17D3 (GeneID 32864) | DRSC20017 | 7.17 | 7.14 | 5381 | 5305 | inactive
CCKLR-17D3 (GeneID 32864) | DRSC23715 | 0.64 | 0.6 | 6685 | 6152 | inactive
unc79 (GeneID 42310) | DRSC15746 | 1.32 | 10.5 | 5984 | 6520 | inactive
unc79 (GeneID 42310) | DRSC25495 | 4.96 | 1.78 | 6450 | 6065 | inactive
CG15473 (GeneID 31401) | DRSC18056 | 11.1 | – | 2975 | 409 | inactive
CG33095 (GeneID 43012) | DRSC14441 | 10.4 | 7.41 | 2467 | 6773 | inactive
CG15042 (GeneID 32844) | DRSC19618 | 16.4 | 1.7 | 3217 | 6533 | inactive
CG6290 (GeneID 32827) | DRSC19979 | 2.19 | 8.66 | 6620 | 7071 | inactive
CG6290 (GeneID 32827) | DRSC25483 | 9.83 | 19.8 | 2207 | 6153 | inactive
Pkc98E (GeneID 43428) | DRSC16791 | 2.17 | 3.73 | 6069 | 6518 | inactive
Pkc98E (GeneID 43428) | DRSC28311 | 7.61 | 11 | 4339 | 2385 | inactive
Cdk5 (GeneID 36727) | DRSC07359 | 27.9 | 12.5 | 3320 | 6590 | inactive

Targets listed so far whose gene name begins with T or t:
gene | amplicon | infection score, replicate 1 | infection score, replicate 2 | cell count, replicate 1 | cell count, replicate 2 | Call
Tep4 (GeneID 35248) | DRSC03453 | 9.69 | 2.27 | 3324 | 6222 | inactive
tsh (GeneID 35430) | DRSC03740 | 5.66 | 16.4 | 6145 | 6176 | inactive
temp (GeneID 31212) | DRSC18271 | 16.2 | 2.21 | 5822 | 6202 | inactive

Additional results follow:
gene | amplicon | infection score, replicate 1 | infection score, replicate 2 | cell count, replicate 1 | cell count, replicate 2 | Call
CG10055 (GeneID 40862) | DRSC12503 | 3.35 | 20.1 | 6485 | 1539 | inactive
yellow-g (GeneID 38294) | DRSC08575 | 3.06 | 0.62 | 6138 | 6740 | inactive
CG13314 (GeneID 39030) | DRSC09985 | 2.9 | 2.92 | 6077 | 6032 | inactive
CG7271 + term | DRSC30034 | 12.5 | 3.06 | 2628 | 6445 | inactive
CNMaR (GeneID 39127) | DRSC08992 | 3.02 | 2.95 | 6258 | 6642 | inactive
CNMaR (GeneID 39127) | DRSC10224 | 2.83 | 2.77 | 6191 | 6091 | inactive
raw (GeneID 44851) | DRSC03599 | 3.21 | 4.15 | 4797 | 4632 | inactive
raw (GeneID 44851) | DRSC03600 | 3.24 | 8.5 | 5564 | 5211 | inactive
myd (GeneID 42303) | DRSC15512 | 2.69 | 3.95 | 6737 | 6808 | inactive
CG34446 (GeneID 5740549) | DRSC24507 | 2.31 | 1.12 | 6570 | 6234 | inactive
tous (GeneID 37582) | DRSC04464 | 18.5 | 18.7 | 6262 | 6404 | inactive
CG15219 (GeneID 49992) | DRSC03715 | 2.58 | 9.32 | 6580 | 6536 | inactive
roq (GeneID 39818) | DRSC10227 | 1.38 | 5.05 | 6789 | 6589 | inactive
CG4822 (GeneID 33170) | DRSC00669 | 12.8 | – | 2875 | 589 | inactive
825-Oak + CG32214 + CG32213 | DRSC27977 | 5.66 | 15.6 | 6294 | 6728 | inactive
AIMP1 (GeneID 35892) | DRSC07118 | 15.4 | – | 6084 | 587 | inactive
AIMP1 (GeneID 35892) | DRSC25922 | 6.58 | 4.64 | 6122 | 6180 | inactive
CG34260 + cmpy | DRSC11701 | 7.7 | 7.76 | 6287 | 6653 | inactive
CG6023 (GeneID 32814) | DRSC19970 | 2.27 | 0.99 | 6776 | 6046 | inactive
CG17985 (GeneID 35702) | DRSC06702 | 3.51 | 10.8 | 6844 | 5916 | inactive
